Results of unrelated studies side by side (data: NIAID ChemDB).

All rows: growth or infection tests; species: HIV-1; strain or isolate: NL4-3; cells: HeLa; read-out: inhibition; dose: 100 µM

Percent inhibition refers to the dose given; in toxicity tests it is the harm to the cells. Neighbouring rows are from separate reports.

O=c1c(-c2nnc(-c3ccc(F)cc3)o2)cnc2ccccn12 ; read by: single cycle ; result: 18%
O=c1c(-c2nnc(SCc3ccc(F)cc3)o2)c[nH]c2c(-c3ccccc3)cccc12 ; read by: p24 / ELISA ; result: 52%
O=C(O)c1c[nH]c2c(-c3ccccc3)cccc2c1=O ; read by: p24 / ELISA ; result: 55%
O=c1c(-c2nnc(SCc3ccccc3)o2)c[nH]c2c(-c3ccccc3)cccc12 ; read by: p24 / ELISA ; result: 20%
Cc1cccc(C(=O)NNC(=O)Cn2c(=O)oc3ccccc32)c1 ; read by: p24 / ELISA ; result: 9%
O=c1c(-c2nnc(-c3ccc(F)cc3)s2)cnc2ccccn12 ; read by: single cycle ; result: 48%
Cc1cccc2c(=O)c(C(=O)O)c[nH]c12 ; read by: p24 / ELISA ; result: 17%
O=C(Cn1c(=O)oc2ccccc21)NNC(=S)c1ccc(F)cc1 ; read by: p24 / ELISA ; result: 81%
O=c1c(-c2nnc(SCc3ccccc3F)o2)c[nH]c2c(-c3ccccc3)cccc12 ; read by: p24 / ELISA ; result: 48%
O=C(Cn1c(=O)oc2ccccc21)NNC(=O)c1ccc(F)cc1 ; read by: p24 / ELISA ; result: 7%
Cc1[nH]c2ccccc2c(=O)c1C(=O)O ; read by: p24 / ELISA ; result: 26%
O=C(Cn1c(=O)oc2ccccc21)NNC(=O)c1ccccc1 ; read by: p24 / ELISA ; result: 33%
O=c1c(-c2nnc(SCc3ccc(Cl)cc3)o2)c[nH]c2c(-c3ccccc3)cccc12 ; read by: p24 / ELISA ; result: 33%
O=C(O)c1c[nH]c2c3c(ccc2c1=O)CCCC3 ; read by: p24 / ELISA ; result: 84%
Cc1ccc(CSc2nnc(-c3c[nH]c4c(-c5ccccc5)cccc4c3=O)o2)cc1 ; read by: p24 / ELISA ; result: 49%
O=C(Cn1c(=O)oc2ccccc21)NNC(=O)c1cccc(F)c1 ; read by: p24 / ELISA ; result: 5%
Cc1ccc(-c2nnc(-c3cnc4ccccn4c3=O)o2)cc1 ; read by: single cycle ; result: 29%
CCCc1[nH]c2ccccc2c(=O)c1C(=O)O ; read by: p24 / ELISA ; result: <10%
O=C(Cn1c(=O)oc2ccccc21)NNC(=O)c1ccc(Cl)cc1 ; read by: p24 / ELISA ; result: 29%